Pooled drug test results. Numbers come from NIAID ChemDB, via PubChem.

All rows: whole-cell or culture tests; organism: HIV-1

ECn is the concentration giving n% inhibition of infection, replication or growth.

SMILES | method | mutations | cells | strain or isolate | setting | read-out | result
O=C(O)[C@H]1O[C@@H](Oc2cc3oc(-c4ccccc4)cc(=O)c3c(O)c2O)[C@H](O)[C@@H](O)[C@@H]1O | - | - | HOS-CD4-CXCR4 + HOS | ENV(BAL31) | - | EC50 | 4 µM
CC(C)C(NC(=S)NC(=O)CCCN1C(=O)c2ccccc2C1=O)C(=O)O | MTT | - | MT-4 | IIIB | - | EC50 | >26.73 µM
C=CCc1ccccc1OP(=O)(N[C@@H](C)C(=O)OC)OC[C@@H]1OC[C@H](n2cc(C)c(=O)[nH]c2=O)O1 | RT activity | RT-M184V | PBMC | LAI | - | EC90 | 12.9 µM
CC(C)C1=C2C3CCC4[C@@]5(C)CC[C@H](OC(=O)CC(C)(C)C(=O)O)C(C)(C)C5CC[C@@]4(C)[C@]3(C)CC[C@@]2(NC(=O)N(C)C(C)C)CC1=O | RT activity | - | MT-2 | IIIB | 30% human serum | EC50 | <0.199 µM
COC(=O)[C@H](C)NP(=O)(OC[C@@H]1OC[C@H](n2cc(C)c(=O)[nH]c2=O)O1)Oc1ccc(CC(C)(C)C)cc1 | RT activity | RT-M184V | PBMC | LAI | - | EC90 | 4.7 µM
CCc1c(Cc2ccccc2C)n(COCC#Cc2ccc(N)cc2)c(=O)[nH]c1=O | MTT | EFV-resistant (K103R V179D P225H) | MT-4 | IIIB | - | EC50 | >39 µM
COC(=O)[C@H](C)NP(=O)(OC[C@@H]1OC[C@H](n2cc(C)c(=O)[nH]c2=O)O1)Oc1cccc2ccccc12 | RT activity | RT-M184V | PBMC | LAI | - | EC90 | 0.64 µM
O=S(=O)(O)O.OCC1OC(OC2C(O)C(CO)OC(OC3C(O)C(CO)OC(OC4C(O)C(O)OC(CO)C4O)C3O)C2O)C(O)C(O)C1O | cytopathic effect / MTT | - | MT-4 | IIIB | - | EC50 | >300 µg/mL
Cc1cn([C@H]2CO[C@@H](COP(=O)(N[C@@H](C)C(=O)OCc3ccccc3)Oc3ccc(Br)cc3)O2)c(=O)[nH]c1=O | RT activity | RT-M184V | PBMC | LAI | - | EC90 | 8.9 µM
Cc1cc(/C=C/C#N)cc(C)c1Oc1nc(NC2CCN(Cc3cccnc3)CC2)nc2ccsc12 | MTT | NNRTI-resistant (RT K103N) | MT-4 | IIIB | - | EC50 | 0.00443 µM
Cc1cn([C@@H]2OC(O[Si](C)(C)C(C)(C)C)C3(OS(=O)(=O)C=C3NCCC(=O)OCc3ccccc3)C2O[Si](C)(C)C(C)(C)C)c(=O)n(C)c1=O | cytopathic effect | - | MT-4 | IIIB | - | EC50 | >250 µM
CC(C)C1=C2C3CCC4[C@@]5(C)CC[C@H](OC(=O)CC(C)(C)C(=O)O)C(C)(C)C5CC[C@@]4(C)[C@]3(C)CC[C@@]2(NC(=O)c2ccncn2)CC1=O | RT activity | - | MT-2 | IIIB | 30% human serum | EC50 | <0.199 µM
COC(=O)[C@@H](NP(=O)(OC[C@@H]1OC[C@H](n2cc(C)c(=O)[nH]c2=O)O1)Oc1ccccc1)C(C)C | RT activity | RT-M184V | PBMC | LAI | - | EC90 | 37.4 µM
CC1(C)Oc2ccc3cc(CC#N)c(=O)oc3c2[C@@H](OC(=O)C23CCC(C)(C(=O)O2)C3(C)C)[C@H]1OC(=O)C12CCC(C)(C(=O)O1)C2(C)C | cytopathic effect / XTT | - | MT-4 | IIIB | - | EC50 | 5.45 µM
CCc1c(-c2ccc3c(c2)OCO3)nc(SCc2cc(-c3ccc(C)cc3)n[nH]2)[nH]c1=O | MTT / syncytia | - | C8166 | IIIB | - | EC50 | 4.41 µM
CCCCCCCC/C=C\CCCCCCCCOP(=O)(N[C@@H](C)C(=O)OC)OC[C@@H]1OC[C@H](n2cc(C)c(=O)[nH]c2=O)O1 | RT activity | RT-M184V | PBMC | LAI | - | EC90 | 23.7 µM
Cc1cc(/C=C/C#N)cc(C)c1Oc1nc(NC2CCN(Cc3ccccn3)CC2)nc2ccsc12 | MTT | NNRTI-resistant (RT E138K) | MT-4 | IIIB | - | EC50 | 0.00746 µM
CC(C)C1=C2C3CCC4[C@@]5(C)CC[C@H](OC(=O)CC(C)(C)C(=O)O)C(C)(C)C5CC[C@@]4(C)[C@]3(C)CC[C@@]2(NC(=O)c2cscn2)CC1=O | RT activity | - | MT-2 | IIIB | 30% human serum | EC50 | <0.199 µM
COC(=O)C(CS)NC(=O)CCCN1C(=O)c2ccccc2C1=O | MTT | - | MT-4 | IIIB | - | EC50 | >60.33 µM
NC(N)=NCCC[C@H](N)C(=O)NC[C@@H]1OC(O[C@H]2[C@@H](O)[C@H](O[C@@H]3[C@@H](O)[C@H](NC(=O)[C@@H](N)CCCN=C(N)N)C[C@H](NC(=O)[C@@H](N)CCCN=C(N)N)[C@H]3O[C@H]3O[C@H](CNC(=O)[C@@H](N)CCCN=C(N)N)[C@@H](O)[C@H](O)[C@H]3NC(=O)[C@@H](N)CCCN=C(N)N)O[C@@H]2CO)[C@H](NC(=O)[C@@H](N)CCCN=C(N)N)[C@@H](O)[C@@H]1O | p24 / RT activity | - | MT-2 | B | - | EC50 | 2.3 µM
Cc1cc(/C=C/C#N)cc(C)c1Oc1nc(NC2CCN(Cc3ccc(Cl)cc3)CC2)nc2ccsc12 | MTT | NNRTI-resistant (RT Y181C) | MT-4 | IIIB | - | EC50 | 0.0777 µM
CC(=O)c1ccccc1N[C@@H](C(N)=O)c1c(Cl)cccc1Cl | cytopathic effect / MTT | - | MT-4 | IIIB | - | EC50 | 6.5 µM
Cc1cc2c(C)cc(=O)oc2c2c1OC(C)(C)[C@H](OC(=O)C13CCC(C)(C(=O)O1)C3(C)C)[C@@H]2OC(=O)C12CCC(C)(C(=O)O1)C2(C)C | p24 | - | H9 | IIIB | - | EC50 | 0.058 µM
COC(=O)C(NC(=O)CCCN1C(=O)c2ccccc2C1=O)C(C)O | MTT | - | MT-4 | IIIB | - | EC50 | >37.82 µM
Cc1cn([C@H]2CO[C@@H](CO[P@]3(=O)OCC[C@H](c4cccc(Cl)c4)O3)O2)c(=O)[nH]c1=O | RT activity | RT-M184V | PBMC | LAI | - | EC90 | 40 µM
Cc1ccc(C)c(CS(=O)(=O)c2cccc[n+]2[O-])c1 | syncytia | - | CEM | HE | - | EC50 | 11 µg/mL
Cc1cc(/C=C/C#N)cc(C)c1Oc1nc(NC2CCN(Cc3ccccc3Br)CC2)nc2ccsc12 | MTT | NNRTI-resistant (RT Y188L) | MT-4 | IIIB | - | EC50 | 0.15 µM
Cc1ccc(C)c(CS(=O)c2ccc(Cl)c[n+]2[O-])c1 | cytopathic effect / MTT | - | C8166 | IIIB | - | EC50 | >40 µg/mL
CC1(C)Oc2ccc3cc(CO)c(=O)oc3c2[C@@H](OC(=O)C23CCC(C)(C(=O)O2)C3(C)C)[C@H]1OC(=O)C12CCC(C)(C(=O)O1)C2(C)C | p24 | - | H9 | IIIB | - | EC50 | 0.03466 µM
CCCCCCCCCCCCCCCCOCCCOP(=O)(NCC(=O)OC)OC[C@@H]1OC[C@H](n2cc(C)c(=O)[nH]c2=O)O1 | RT activity | RT-M184V | PBMC | LAI | - | EC50 | 11.9 µM
O=C(Cl)CCCN1C(=O)c2ccccc2C1=O | MTT | - | MT-4 | IIIB | - | EC50 | >52.8 µM
NS(=O)(=O)c1ccc(-c2c3nc(c(-c4ccc(S(N)(=O)=O)cc4)c4ccc([nH]4)c(-c4ccc(S(N)(=O)=O)cc4)c4nc(c(-c5ccc(S(N)(=O)=O)cc5)c5ccc2[nH]5)C=C4)C=C3)cc1 | cytopathic effect / MTT | - | MT-4 | IIIB | - | EC50 | 18 µg/mL
CCCc1cc(=O)oc2c3c(c4c(c12)OC(C)(C)CC4)O[C@@H](C)[C@H](C)[C@@H]3O | cytopathic effect / XTT | - | CEMx174 + CEM | IIIB | - | EC50 | 0.8 µM
CC(C)C1=C2[C@H]3CC[C@@H]4[C@@]5(C)CC[C@H](OC(=O)CC(C)(C)C(=O)O)C(C)(C)[C@@H]5CC[C@@]4(C)[C@]3(C)CC[C@@]2(NC(=O)N2CCNCC2)CC1=O | RT activity | - | MT-2 | IIIB | 30% human serum | EC50 | <0.199 µM
CCc1c(Cc2cc(C)cc(C)c2)n(COCC#CC#CCO)c(=O)[nH]c1=O | MTT | K103N + Y181C | MT-4 | IIIB | - | EC50 | 1.7 µM
O=C(O)c1ccc(-c2c3nc(c(-c4ccc(C(=O)O)cc4)c4ccc([nH]4)c(-c4ccc(C(=O)O)cc4)c4nc(c(-c5ccc(C(=O)O)cc5)c5ccc2[nH]5)C=C4)C=C3)cc1 | cytopathic effect / MTT | - | MT-4 | IIIB | - | EC50 | 0.9 µg/mL
CC(=O)c1ccc(C)cc1NC(C(N)=O)c1c(Cl)cccc1Cl | p24 | - | PBL | IIIB | - | EC50 | 0.014 µM
CCc1c(Cc2cc(C)cc(C)c2)n(COCC#Cc2ccc(O[Si](c3ccccc3)(c3ccccc3)C(C)(C)C)cc2)c(=O)[nH]c1=O | MTT | EFV-resistant (K103R V179D P225H) | MT-4 | IIIB | - | EC50 | >100 µM
O=S(=O)(O)O.OCC(O)C(O)C(OC1OC(CO)C(O)C(OC2OC(CO)C(O)C(OC3OC(CO)C(O)C(OC4OC(CO)C(O)C(O)C4O)C3O)C2O)C1O)C(O)CO | cytopathic effect / MTT | - | MT-4 | IIIB | - | EC50 | >300 µg/mL
COc1ccc(C)cc1CS(=O)(=O)c1cccc[n+]1[O-] | syncytia | - | CEM | RF | - | EC50 | 10 µg/mL
CC(C)CCC[C@@H](C)[C@H]1CC[C@H]2[C@@H]3CC[C@H]4C[C@@H](CCC=C(c5cc(Cl)c(O)c(C(=O)O)c5)c5cc(Cl)c(O)c(C(=O)O)c5)CC[C@]4(C)[C@H]3CC[C@]12C | cytopathic effect | - | MT-2 | clinical isolate A012 AZT-resistant | - | EC50 | 10 µM
Cc1c(Cl)c(=O)oc2c3c(ccc12)OC(C)(C)[C@H](OC(=O)C12CCC(C)(C(=O)O1)C2(C)C)[C@@H]3OC(=O)C12CCC(C)(C(=O)O1)C2(C)C | p24 | - | H9 | IIIB | - | EC50 | 0.00075 µM
CCc1c(Cc2cc(C)cc(C)c2)n(COC/C(=C/Sc2ccccc2)Sc2ccccc2)c(=O)[nH]c1=O | MTT | WT | MT-4 | IIIB | - | EC50 | 0.06 µM
Cc1cc(C#N)cc(C)c1Oc1nc(NC2CCC(NCc3ccc(O)cc3)CC2)nc2ccsc12 | MTT | NNRTI-resistant (RT K103N) | MT-4 | IIIB | - | EC50 | 4.6 µM
Cc1nc(C(=O)N[C@@]23CC[C@]4(C)C(CCC5[C@@]6(C)CC[C@H](OC(=O)CC(C)(C)C(=O)O)C(C)(C)C6CC[C@]54C)C2=C(C(C)C)C(=O)C3)cs1 | RT activity | - | MT-2 | IIIB | 30% human serum | EC50 | <0.199 µM
Cc1ccccc1CN1CCC(Nc2nc(Oc3c(C)cc(/C=C/C#N)cc3C)c3sccc3n2)CC1 | MTT | NNRTI-resistant (RT Y188L) | MT-4 | IIIB | - | EC50 | 0.174 µM
COC(=O)C(CCSC)NC(=O)CCCN1C(=O)c2ccccc2C1=O | MTT | - | MT-4 | IIIB | - | EC50 | >18.85 µM
CCc1c(Cc2cc(C)cc(C)c2)n(COCC#Cc2ccc(CO[Si](c3ccccc3)(c3ccccc3)C(C)(C)C)cc2)c(=O)[nH]c1=O | MTT | EFV-resistant (K103R V179D P225H) | MT-4 | IIIB | - | EC50 | >100 µM
CC(C)C1=C2[C@H]3CC[C@@H]4[C@@]5(C)CC[C@H](OC(=O)CC(C)(C)C(=O)O)C(C)(C)[C@@H]5CC[C@@]4(C)[C@]3(C)CC[C@@]2(NC(=O)N2CCN(C)CC2)CC1=O | RT activity | - | MT-2 | IIIB | 30% human serum | EC50 | <0.199 µM
CCc1c(Cc2cc(C)cc(C)c2)n(COCC#Cc2ccc([N+](=O)[O-])cc2)c(=O)[nH]c1=O | MTT | EFV-resistant (K103R V179D P225H) | MT-4 | IIIB | - | EC50 | >7 µM
CC(C)C1=C2C3CCC4[C@@]5(C)CC[C@H](OC(=O)CC(C)(C)C(=O)O)C(C)(C)C5CC[C@@]4(C)[C@]3(C)CC[C@@]2(NC(=O)N2CC[C@@H](N)C2)CC1=O | RT activity | - | MT-2 | IIIB | 30% human serum | EC50 | 0.2–0.999 µM

The first 4 rows once more:

SMILES	method	mutations	cells	strain or isolate	setting	read-out	result
O=C(O)[C@H]1O[C@@H](Oc2cc3oc(-c4ccccc4)cc(=O)c3c(O)c2O)[C@H](O)[C@@H](O)[C@@H]1O	-	-	HOS-CD4-CXCR4 + HOS	ENV(BAL31)	-	EC50	4 µM
CC(C)C(NC(=S)NC(=O)CCCN1C(=O)c2ccccc2C1=O)C(=O)O	MTT	-	MT-4	IIIB	-	EC50	>26.73 µM
C=CCc1ccccc1OP(=O)(N[C@@H](C)C(=O)OC)OC[C@@H]1OC[C@H](n2cc(C)c(=O)[nH]c2=O)O1	RT activity	RT-M184V	PBMC	LAI	-	EC90	12.9 µM
CC(C)C1=C2C3CCC4[C@@]5(C)CC[C@H](OC(=O)CC(C)(C)C(=O)O)C(C)(C)C5CC[C@@]4(C)[C@]3(C)CC[C@@]2(NC(=O)N(C)C(C)C)CC1=O	RT activity	-	MT-2	IIIB	30% human serum	EC50	<0.199 µM

Neighbouring rows are from separate reports. Two numbers with a dash give a range or band. An empty or dashed field is not shown.